Pooled drug test results. Numbers come from NIAID ChemDB, via PubChem.

Common to all: cytotoxicity tests; cell line: H9; endpoint: CC50

Rows are shuffled and stem from different studies. CCn is the concentration with n% toxicity to the cells. Blank or dashed fields: not listed here.

smiles | read by | result
CCOC(=O)c1cc(C(=O)c2ccc([N+](=O)[O-])cc2)n2ccc(C(=O)NCc3ccccn3)cc12 | MTT | 99.4 µM
CCOC(=O)c1cc(C(=O)c2ccccc2)n2ccc(C(=O)NCc3ccccn3)cc12 | MTT | 151 µM
CCOC(=O)c1cc(C(=O)c2ccccc2N)n2ccc(C(=O)NCc3ccccn3)cc12 | MTT | 247.5 µM
O=C(/C=C/c1ccccc1)c1ccccn1 | cell count | 0.21 µg/mL
CN(c1cccc2cccnc12)S(=O)(=O)c1ccc(F)cc1F | ATP | >50 µM
CCOC(=O)c1cc(C(=O)c2ccccc2)n2ccc(C(=O)NCc3ccccn3)cc12 | MTT | 151 µM
O=[N+]([O-])c1cccc(S(=O)(=O)Nc2cccc3cccnc23)c1 | ATP | >20 µM
C[C@@H]1CCO[C@H]2Cn3cc(C(=O)NCc4ccc(F)cc4F)c(=O)c(O)c3C(=O)N12 | luminescence | 1.302 µM
CCOC(=O)c1cc(C(=O)c2ccccc2)n2ccc(C(=O)N[C@@H](C(=O)OC)c3ccccc3)cc12 | MTT | 229 µM
Cc1cn([C@H]2C[C@H](N=[N+]=[N-])[C@@H](CO)O2)c(=O)[nH]c1=O | cell count | 500 µg/mL
Cc1c(C[N+](=O)[O-])c(=O)oc2c3c(ccc12)OC(C)(C)[C@H](OC(=O)C12CCC(C)(C(=O)O1)C2(C)C)[C@@H]3OC(=O)C12CCC(C)(C(=O)O1)C2(C)C | XTT | >21.58 µM
CC(=O)OCc1c(C)c2ccc3c(c2oc1=O)[C@@H](OC(=O)C12CCC(C)(C(=O)O1)C2(C)C)[C@@H](OC(=O)C12CCC(C)(C(=O)O1)C2(C)C)C(C)(C)O3 | XTT | 14.8 µM
CC1(C)CC[C@]2(C(=O)O)CC[C@]3(C)[C@H](CC[C@@H]4[C@@]5(C)CC[C@H](OC(=O)CC6(CC(=O)O)CCCC6)C(C)(C)[C@@H]5CC[C@]43C)[C@@H]2C1 | cell count | 10.1 µg/mL
NC(=O)n1c(O)c(C(=O)c2cccs2)c2cc(Cl)ccc21 | trypan blue | 96 µM
CCOC(=O)c1cc(C(=O)c2ccccc2)n2ccc(C(=O)NCc3cccnc3)cc12 | MTT | 114.1 µM
COc1cc2c(c3oc(=O)c(CBr)c(C)c13)[C@@H](OC(=O)C13CCC(C)(C(=O)O1)C3(C)C)[C@@H](OC(=O)C13CCC(C)(C(=O)O1)C3(C)C)C(C)(C)O2 | XTT | >32.93 µM
CCOC(=O)c1cc(C(=O)c2ccc([N+](=O)[O-])cc2)n2ccc(C(=O)NCc3ccccn3)cc12 | MTT | 99.4 µM
COc1cc2c(c3oc(=O)c(C)c(C)c13)[C@@H](OC(=O)C13CCC(C)(C(=O)O1)C3(C)C)[C@@H](OC(=O)C13CCC(C)(C(=O)O1)C3(C)C)C(C)(C)O2 | XTT | >36.76 µM
CCOC(=O)c1cc(C(=O)c2ccccc2)n2ccc(C(=O)N[C@@H](Cc3c[nH]c4ccccc34)C(=O)OC)cc12 | MTT | 139 µM
CC1(C)CC[C@]2(C(=O)O)CC[C@]3(C)[C@H](CC[C@@H]4[C@@]5(C)CC[C@H](O)C(C)(C)[C@@H]5CC[C@]43C)[C@@H]2C1 | cell count | 17.4 µg/mL
O=[N+]([O-])c1ccc(S(=O)(=O)Nc2cccc3cccnc23)cc1 | ATP | >20 µM
Cc1c(COC(N)=O)c(=O)oc2c3c(ccc12)OC(C)(C)[C@H](OC(=O)C12CCC(C)(C(=O)O1)C2(C)C)[C@@H]3OC(=O)C12CCC(C)(C(=O)O1)C2(C)C | XTT | 33 µM
CC1(C)CC[C@]2(C(=O)O)CC[C@]3(C)C(=CCC4[C@@]5(C)CC[C@H](OC(=O)CCCC(=O)O)C(C)(C)C5CC[C@]43C)C2C1 | cell count | 14.6 µg/mL
Cc1cc(=O)oc2c3c(c(CO)cc12)OC(C)(C)[C@H](OC(=O)[C@@]12CC[C@@](C)(C(=O)O1)C2(C)C)[C@@H]3OC(=O)[C@@]12CC[C@@](C)(C(=O)O1)C2(C)C | XTT | >15 µM
CC(C)C(NC(=O)C[C@@H]1O[C@@H]1[C@H](Cc1ccccc1)NC(=O)[C@@H](NC(=O)OCc1ccccn1)C(C)(C)S(C)(=O)=O)C(C)C |  | >100 µM
CCOC(=O)c1cc(C(=O)c2ccccc2)n2ccc(C(=O)N[C@H](C)c3ccccc3)cc12 | MTT | 216 µM
CC1(C)Oc2ccc3cc(CC#N)c(=O)oc3c2[C@@H](OC(=O)C23CCC(C)(C(=O)O2)C3(C)C)[C@H]1OC(=O)C12CCC(C)(C(=O)O1)C2(C)C | XTT | >37.82 µM
CC1(C)CC[C@]2(CNC(=O)CC3(CC(=O)O)CCCC3)CC[C@]3(C)C(=CC[C@@H]4[C@@]5(C)CC[C@H](OC(=O)CC6(CC(=O)O)CCCC6)C(C)(C)[C@@H]5CC[C@]43C)[C@@H]2C1 | cell count | 19.5 µg/mL
O=c1[nH]c(=S)ccn1[C@@H]1O[C@H](COP(=O)(O)O)[C@@H](O)[C@H]1O | XTT | >200 µM
COc1ccc(S(=O)(=O)Nc2cccc3cccnc23)cc1 | ATP | >20 µM
CC(C)[C@H](Cc1ccccc1)NC(=O)C[C@@H]1O[C@@H]1[C@H](Cc1ccccc1)NC(=O)[C@@H](NC(=O)CN1CCCC1)C(C)(C)S(C)(=O)=O |  | >100 µM
COP(=O)(c1cc(C)cc(CCC#N)c1)c1c(C(N)=O)[nH]c2ccc(Cl)c(F)c12 | MTS | 20 µM
CC1(C)CC[C@]2(C(=O)O)CC[C@]3(C)C(=CCC4[C@@]5(C)CC[C@H](OC(=O)CC6(CC(=O)O)CCCC6)C(C)(C)C5CC[C@]43C)C2C1 | cell count | 4.7 µg/mL
O=C1CCC(=O)N1CCCCCCc1ccc2c3cc(CO)ccc3c3cc(CO)ccc3c2c1 | trypan blue | 10 µM
CCOC(=O)c1cc(C(=O)c2ccco2)n2ccc(C(=O)NCc3ccccn3)cc12 | MTT | 89.7 µM
CC(C)[C@@H](NC(=O)C[C@@H]1O[C@@H]1[C@H](Cc1ccccc1)NC(=O)[C@@H](NC(=O)OCc1cccnc1)C(C)(C)S(C)(=O)=O)c1ccccc1 |  | >100 µM
CC(=O)OCc1cc2ccc3c(c2oc1=O)[C@@H](OC(=O)[C@@]12CC[C@@](C)(C(=O)O1)C2(C)C)[C@@H](OC(=O)[C@@]12CC[C@@](C)(C(=O)O1)C2(C)C)C(C)(C)O3 | XTT | 11.6 µM
O=S(=O)(Nc1cccc2ccccc12)c1ccc(F)cc1F | ATP | 7.1 µM
CC(CC(=O)O)CC(=O)O[C@H]1CC[C@@]2(C)C(CC[C@]3(C)C2CC=C2C4CC(C)(C)CC[C@]4(C(=O)O)CC[C@]23C)C1(C)C | cell count | 27.5 µg/mL

Repeating the final 3 entries:

smiles	read by	result
CC(=O)OCc1cc2ccc3c(c2oc1=O)[C@@H](OC(=O)[C@@]12CC[C@@](C)(C(=O)O1)C2(C)C)[C@@H](OC(=O)[C@@]12CC[C@@](C)(C(=O)O1)C2(C)C)C(C)(C)O3	XTT	11.6 µM
O=S(=O)(Nc1cccc2ccccc12)c1ccc(F)cc1F	ATP	7.1 µM
CC(CC(=O)O)CC(=O)O[C@H]1CC[C@@]2(C)C(CC[C@]3(C)C2CC=C2C4CC(C)(C)CC[C@]4(C(=O)O)CC[C@]23C)C1(C)C	cell count	27.5 µg/mL